Measured values as given in article PMC10740580, “Benzothiazole-Phthalimide Hybrids as Anti-Breast Cancer and Antimicrobial Agents” (Antibiotics, 2023).

Tested on: MCF-10A cells
Experiment: MTT cell viability assay, nonmalignant MCF-10A
Format: cell-based, human
Method: The anticancer activity of the studied compounds (3a–h) was explored with regards to two human breast cancer cell lines, namely the estrogen receptor positive (ER+) MCF-7 cells and the triple negative MDA-MB-231 cells (ER-, PR-, and HER-2/Neu-). Cells were continuously exposed to the test substances for 72 h, after which their viability was assessed by means of the MTT assay. Table 2 lists the determined IC50 values for the investigated substances and the reference drug, thalidomide. […] Additionally, the same test for all the compounds has been performed on nonmalignant breast epithelial cells (MCF-10A) to ascertain their potential cytotoxicity.
The four cell lines used in this work (MCF-7, MDA-MB-231, MCF-10A, and 3T3-L1) were obtained from the American Type Culture Collection (ATCC, Manassas, VA, USA). […]
Cell viability was evaluated by means of the 3-(4,5-dimethylthiazol-2-y1)-2,5-diphenyltetra zolium bromide (MTT, Sigma-Aldrich, Milan, Italy) assay. […] Cells were lysed with DMSO after 2 h of incubation at 37 °C, and optical density at 570 nm was then determined with a microplate reader. Using GraphPad Prism 9 software (GraphPad Inc., San Diego, CA, USA), the mean absorbance for each sample was expressed as a percentage over the control and plotted vs. drug concentrations to establish the IC50 values. […]

`O=C1c2ccccc2C(=O)N1c1nc2ccc(Oc3ccccc3)cc2s1` [3h, 2-[6-Phenoxy-1,3-benzothiazol-2-yl]-1H-isoindole-1,3(2H)-dione] was tested. Which “IC50 on MCF-10A relative to MCF-7 (fold higher)” value (selectivity nonmalignant vs MCF-7 cancer cells) did it give?
The value was ~7 fold.

And the “IC50 on MCF-10A relative to MDA-MB-231 (fold higher)” value (selectivity nonmalignant vs MDA-MB-231 cancer cells)?
Its value is “about 13 fold”.
